Tests used:
229E Mpro = 229E Mpro (Human coronavirus 229E, UniProt P0C6X1); assay: 229E Mpro enzymatic assay; settings: read-out: 229E Mpro EC50
HCov OC43 = settings: read-out: OC43 IC50 (uM) MEDIAN

Chains of the proteins cited; added tags and fusions are not shown. Residues count along the entry.
UniProt P0C6X1, 2966-3267 limits assumed: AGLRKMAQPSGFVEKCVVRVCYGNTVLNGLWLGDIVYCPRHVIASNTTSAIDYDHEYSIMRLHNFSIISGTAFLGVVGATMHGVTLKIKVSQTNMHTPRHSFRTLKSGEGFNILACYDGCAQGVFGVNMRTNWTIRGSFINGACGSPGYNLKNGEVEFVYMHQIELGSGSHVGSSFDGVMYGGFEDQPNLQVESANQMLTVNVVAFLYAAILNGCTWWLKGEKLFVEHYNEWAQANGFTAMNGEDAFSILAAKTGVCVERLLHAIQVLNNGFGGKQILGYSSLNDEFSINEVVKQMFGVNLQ

Row | SMILES | EC50 (229E Mpro) | IC50 (HCov OC43)
1 | CC(C)(C)OC(=O)N1CCN(C(=O)C(c2cccnc2)N(C(=O)[C@H]2CCCN2C#N)c2ccc(C(C)(C)C)cc2)CC1 (single isomer, unassigned) | 10 to 30 µM | > 30 µM
2 | CC(C)(C)c1ccc(N(C(=O)[C@@]2(C)CCCN2)C(C(=O)NC2CCCCC2)c2cccnc2)cc1 (single isomer, unassigned) | > 30 µM | 
3 | CC(C)(C)c1ccc(N(C(=O)[C@H]2CCCN2C#N)C(C(=O)N2CCNCC2)c2cccnc2)cc1 (single isomer, unassigned) | > 30 µM | > 30 µM
4 | CC(C)(C)c1ccc(N(C(=O)[C@H]2COCCN2)C(C(=O)NC2CCCCC2)c2cccnc2)cc1 (single isomer, unassigned) | > 30 µM | 
5 | CC(C)(C)c1ccc(N(C(=O)[C@H]2C[C@@H](O)CN2)C(C(=O)NC2CCCCC2)c2cccnc2)cc1 (single isomer, unassigned) | > 30 µM | 
6 | CC(C)(C)c1ccc(N(C(=O)[C@H]2C[C@H](O)CN2)C(C(=O)NC2CCCCC2)c2cccnc2)cc1 (single isomer, unassigned) | > 30 µM | 
7 | CC(C)(C)c1ccc(N(C(=O)[C@H]2Cc3ccccc3CN2)C(C(=O)NC2CCCCC2)c2cccnc2)cc1 (single isomer, unassigned) | > 30 µM | > 30 µM
8 | CC1(C)CN[C@@H](C(=O)N(c2ccc(C(C)(C)C)cc2)C(C(=O)NC2CCCCC2)c2cccnc2)CO1 (single isomer, unassigned) | > 30 µM | 
9 | CO[C@@H]1C[C@H](C(=O)N(c2ccc(S(F)(F)(F)(F)F)cc2)C(C(=O)N2CCN(C(=O)OC(C)(C)C)C2)c2cccnc2)N(C#N)C1 (single isomer, unassigned) | < 2 µM | 2 to 10 µM
10 | CO[C@@H]1C[C@H](C(=O)N(c2ccc(S(F)(F)(F)(F)F)cc2)C(C)(C(=O)NC2CCC(F)(F)CC2)c2cccnc2)N(C#N)C1 (single isomer, unassigned) | < 2 µM | < 2 µM
11 | COc1ccncc1C(C(=O)NC1CCC(F)(F)CC1)N(C(=O)[C@H]1C[C@@](C)(O)CN1C#N)c1ccc(S(F)(F)(F)(F)F)cc1 (single isomer, unassigned) | < 2 µM | < 2 µM
12 | C[C@@]1(O)C[C@H](C(=O)N(c2ccc(S(F)(F)(F)(F)F)cc2)C(C(=O)NC2CCC(F)(F)CC2)c2cncnc2)N(C#N)C1 (single isomer, unassigned) | < 2 µM | < 2 µM
13 | C[C@H](C(=O)N(c1ccc(C(C)(C)C)cc1)C(C(=O)NC1CCCCC1)c1cccnc1)N(C)C#N (single isomer, unassigned) | > 30 µM | > 30 µM
14 | CN1CCN(C#N)C(C(=O)N(c2ccc(C(C)(C)C)cc2)C(C(=O)NC2CCCCC2)c2cccnc2)C1 (single isomer, unassigned) [217 Isomer 2.1] | < 2 µM | 2 to 10 µM
15 | CN1CCN(C#N)C(C(=O)N(c2ccc(C(C)(C)C)cc2)C(C(=O)NC2CCCCC2)c2cccnc2)C1 (single isomer, unassigned) [217 Isomer 2.2] | > 30 µM | > 30 µM
16 | CC1CCC(C(=O)N(c2ccc(C(C)(C)C)cc2)C(C(=O)NC2CCCCC2)c2cccnc2)N1C(=O)OC(C)(C)C (single isomer, unassigned) [239 Isomer 1] | 10 to 30 µM | 
17 | CC1CCC(C(=O)N(c2ccc(C(C)(C)C)cc2)C(C(=O)NC2CCCCC2)c2cccnc2)N1C(=O)OC(C)(C)C (single isomer, unassigned) [239 Isomer 2] | < 2 µM | 
18 | CC(C)(C)c1ccc(N(C(=O)[C@H]2c3ccccc3CN2C#N)C(C(=O)NC2CCCCC2)c2cccnc2)cc1 (single isomer, unassigned) [371a Isomer 1] | < 2 µM | > 30 µM
19 | CC(C)(C)c1ccc(N(C(=O)[C@H]2c3ccccc3CN2C#N)C(C(=O)NC2CCCCC2)c2cccnc2)cc1 (single isomer, unassigned) [371a Isomer 2] | > 30 µM | > 30 µM
20 | CC(C)(C)c1ccc(N(C(=O)[C@H]2CCCN2C#N)C(C(=O)NC2CC2)c2cccnc2)cc1 (single isomer, unassigned) [459 Isomer 2] | < 2 µM | 10 to 30 µM
21 | CC(C)(C)NC(=O)C(c1cccnc1)N(C(=O)[C@H]1C[C@@H](O)CN1C#N)c1ccc(C(C)(C)C)cc1 (single isomer, unassigned) [579 Isomer 2] | 2 to 10 µM | 10 to 30 µM
22 | CC(C)(C)c1ccc(N(C(=O)[C@H]2C[C@@H](O)CN2C#N)C(C(=O)NC2CCCCC2)c2cncc3ccccc23)cc1 (single isomer, unassigned) [667 Isomer 1] | < 2 µM | < 2 µM
23 | CC(C)(C)c1ccc(N(C(=O)[C@H]2C[C@@H](O)CN2C#N)C(C(=O)NC2CCCCC2)c2cncc3ccccc23)cc1 (single isomer, unassigned) [667 Isomer 2] | < 2 µM | < 2 µM
24 | CC(C)(C)c1ccc(N(C(=O)[C@H]2C[C@@H](O)CN2C#N)C(C(=O)NC2CCCCC2)c2cncc(C(F)(F)F)c2)cc1 (single isomer, unassigned) [683 Isomer 1] | 2 to 10 µM | 2 to 10 µM

Row | SMILES | EC50 (229E Mpro) | IC50 (HCov OC43)
25 | CC(C)(C)c1ccc(N(C(=O)[C@H]2C[C@@H](O)CN2C#N)C(C(=O)NC2CCCCC2)c2cncc(C(F)(F)F)c2)cc1 (single isomer, unassigned) [683 Isomer 2] | 2 to 10 µM | 10 to 30 µM
26 | CC(C)(C#N)c1ccc(N(C(=O)[C@H]2C[C@@H](O)CN2C#N)C(C(=O)NC2CCCCC2)c2cccnc2)cc1 (single isomer, unassigned) [771 Isomer 1] | < 2 µM | < 2 µM
27 | CC(C)(C#N)c1ccc(N(C(=O)[C@H]2C[C@@H](O)CN2C#N)C(C(=O)NC2CCCCC2)c2cccnc2)cc1 (single isomer, unassigned) [771 Isomer 2] | 2 to 10 µM | 10 to 30 µM
28 | N#CN1CC(=O)NCC1C(=O)N(c1ccc(S(F)(F)(F)(F)F)cc1)C(C(=O)NC1CCOCC1)c1cccnc1 (single isomer, unassigned) [810 Isomer 1] | < 2 µM | < 2 µM
29 | N#CN1CC(=O)NCC1C(=O)N(c1ccc(S(F)(F)(F)(F)F)cc1)C(C(=O)NC1CCOCC1)c1cccnc1 (single isomer, unassigned) [810 Isomer 2] | 2 to 10 µM | > 30 µM
30 | N#CN1CC(=O)NCC1C(=O)N(c1ccc(S(F)(F)(F)(F)F)cc1)C(C(=O)NC1CCOCC1)c1cccnc1 (single isomer, unassigned) [810 Isomer 3] | < 2 µM | 2 to 10 µM
31 | N#CN1CC(=O)NCC1C(=O)N(c1ccc(S(F)(F)(F)(F)F)cc1)C(C(=O)NC1CCOCC1)c1cccnc1 (single isomer, unassigned) [810 Isomer 4] | < 2 µM | 2 to 10 µM
32 | CN1CC(C(=O)N(c2ccc(S(F)(F)(F)(F)F)cc2)C(C(=O)NC2CCOCC2)c2cccnc2)N(C#N)CC1=O (single isomer, unassigned) [812 Isomer 1] | < 2 µM | < 2 µM
33 | CN1CC(C(=O)N(c2ccc(S(F)(F)(F)(F)F)cc2)C(C(=O)NC2CCOCC2)c2cccnc2)N(C#N)CC1=O (single isomer, unassigned) [812 Isomer 2] | 2 to 10 µM | 10 to 30 µM
34 | CN1CC(C(=O)N(c2ccc(S(F)(F)(F)(F)F)cc2)C(C(=O)NC2CCOCC2)c2cccnc2)N(C#N)CC1=O (single isomer, unassigned) [812 Isomer 3] | < 2 µM | 2 to 10 µM
35 | C[C@@]1(O)C[C@H](C(=O)N(c2ccc(S(F)(F)(F)(F)F)cc2)C(C(=O)NC2CCC(F)(F)CC2)c2cncc(F)c2)N(C#N)C1 (single isomer, unassigned) [817 Isomer 1] | < 2 µM | < 2 µM
36 | C[C@@]1(O)C[C@H](C(=O)N(c2ccc(S(F)(F)(F)(F)F)cc2)C(C(=O)NC2CCC(F)(F)CC2)c2cncc(F)c2)N(C#N)C1 (single isomer, unassigned) [817 Isomer 2] | < 2 µM | 2 to 10 µM
37 | CC(C)(C)c1ccc(N(C(=O)C2CCN2C#N)C(C(=O)NC2CCCCC2)c2cccnc2)cc1 (single isomer, unassigned) [841 Isomer 1.2] | > 30 µM | 
38 | CC(C)(C)c1ccc(N(C(=O)C2CCN2C#N)C(C(=O)NC2CCCCC2)c2cccnc2)cc1 (single isomer, unassigned) [841 Isomer 1] | < 2 µM | 
39 | CC(C)(C)c1ccc(N(C(=O)C2CCN2C#N)C(C(=O)NC2CCCCC2)c2cccnc2)cc1 (single isomer, unassigned) [841 Isomer 2.1] | 2 to 10 µM | 
40 | CC(C)(C)c1ccc(N(C(=O)C2CCN2C#N)C(C(=O)NC2CCCCC2)c2cccnc2)cc1 (single isomer, unassigned) [841 Isomer 2] | > 30 µM | 
41 | CC(C)(C)c1ccc(N(C(=O)[C@H]2CCN2C#N)C(C(=O)NC2CCCCC2)c2cccnc2)cc1 (single isomer, unassigned) [841a Isomer 1] | < 2 µM | 
42 | CC(C)(C)c1ccc(N(C(=O)[C@H]2CCN2C#N)C(C(=O)NC2CCCCC2)c2cccnc2)cc1 (single isomer, unassigned) [841a Isomer 2] | < 2 µM | 
43 | CC(C)(C)c1ccc(N(C(=O)[C@H]2CCCN2C#N)C(C(=O)N2CCCC2)c2cccnc2)cc1 (single isomer, unassigned) [947 Isomer 1] | < 2 µM | 2 to 10 µM
44 | CC(C)(C)c1ccc(N(C(=O)[C@H]2CCCN2C#N)C(C(=O)N2CCCC2)c2cccnc2)cc1 (single isomer, unassigned) [947 Isomer 2] | 2 to 10 µM | > 30 µM
45 | CC(C)(C)OC(=O)NC1CN(C(=O)C(c2cccnc2)N(C(=O)[C@H]2CCCN2C#N)c2ccc(C(C)(C)C)cc2)C1 (single isomer, unassigned) [948 Isomer 1] | 2 to 10 µM | 2 to 10 µM
46 | CC(C)(C)OC(=O)NC1CN(C(=O)C(c2cccnc2)N(C(=O)[C@H]2CCCN2C#N)c2ccc(C(C)(C)C)cc2)C1 (single isomer, unassigned) [948 Isomer 2] | 2 to 10 µM | > 30 µM
47 | CC(C)(C)c1ccc(N(C(=O)[C@H]2CCCN2C#N)C(C(=O)N2CC[C@H](O)C2)c2cccnc2)cc1 (single isomer, unassigned) [957 Isomer 1] | 2 to 10 µM | 10 to 30 µM
48 | CC(C)(C)c1ccc(N(C(=O)[C@H]2CCCN2C#N)C(C(=O)N2CC[C@H](O)C2)c2cccnc2)cc1 (single isomer, unassigned) [957 Isomer 2] | 10 to 30 µM | > 30 µM

Source: US20220380347A1
